# PubChem BioAssay AID1224833 | University of Georgia | 2016
# Aim: 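Host factors restraining rotavirus as candidate antiviral genes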 (primary screen)
# Cells: monkey MA104 kidney cells
# Knock-down reagent: siRNA pool against human genes, 50 nM
# Time to read-out: 48 h knock-down before infection; read 24 h after infection
# Conditions: infection with rotavirus strain RV3 two days after transfection; infectious dose for this stage not given
# Detection: 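Rotavirus antigen per well by fluorescent immunoassay, normalised to non-targeting control wells on each plate and given as a standard z-score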
# Direction: z-score vs non-targeting control: higher = more rotavirus replication than with non-targeting control
# Call rule: In these data the active calls have z-score vs non-targeting control at about -1 or lower, or at about 1 or higher
# Calls: active = z-score beyond 1 either way; inactive = z-score within 1 of zero
# The whole screen tested about 12,000 reagents; this is a part drawn at random. Of all reagents, about 5,600 (46%) are marked active. 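Active calls cover z-scores past 1 in both directions, so they include lowered as well as raised rotavirus replication.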 Unmarked entries are inactive. Reagent sequences are not shown.
gene,z-score vs non-targeting control
SEC11A,1.63 (active)
MESD,0.624
RPS4X,1.9 (active)
OR13C5,-0.706
CHL1,-0.786
RECK,0.776
MAIP1,0.849
TTLL13,-2.12 (active)
GAPDH,-2.43 (active)
BMF,-0.64
PRIMPOL,1.58 (active)
SOAT2,-2.92 (active)
KYAT1,-0.681
REG4,1.02 (active)
TBX1,0.891
FABP5,-0.96
TUBGCP6,0.448
LRTM1,-0.276

Sorted by “z-score vs non-targeting control” (ascending): some entries from above.
gene,z-score vs non-targeting control
GAPDH,-2.43 (active)
TTLL13,-2.12 (active)
CHL1,-0.786
OR13C5,-0.706
BMF,-0.64
RECK,0.776
MAIP1,0.849
PRIMPOL,1.58 (active)

The list goes on:
gene,z-score vs non-targeting control
MRPL19,0.351
TDRKH,-0.331
HSD17B7,-1.75 (active)
ACAA1,-1.4 (active)
NONO,-2.5 (active)
LRRCC1,3.02 (active)
TP53TG5,-0.512
CREB5,-1.28 (active)
DNAJC4,-1.71 (active)
KAT8,-1.95 (active)
SPZ1,-0.766
RASGRP2,0.96
C2orf15,-2.21 (active)
STOX1,-2.11 (active)
COL23A1,1.13 (active)
GABARAP,-1.74 (active)
PRG2,-1.49 (active)
PHYHD1,-0.862
ACSM1,0.746
DRAP1,0.907
SLC30A6,0.835
HHLA2,-1.86 (active)
GET1,-1.26 (active)
PLEKHG2,-1.61 (active)
WASHC1,1.5 (active)
NCK2,-0.974
POTEE,-1.05 (active)
